Consider one compound from paper PMC9504208, “Comprehensive Study of Antiretroviral Drug Permeability at the Cervicovaginal Mucosa via an In Vitro Model” (Pharmaceutics, 2022).

The test system of the data set is HEC-1A cell layers. The data set can be described thus: Transepithelial electrical resistance (TEER) of HEC-1A cell layers. It counts as cell-based, human.

Regarding `C[S+](C)[O-]` [DMSO], the “Reduction of TEER values” was “no reduction” (buffer containing 1% DMSO applied to apical compartment) and 60–70% (buffer containing 1% DMSO applied to basolateral compartment).
